Data on two molecules can be found in paper PMC12319226 (Frontiers in Bioinformatics, 2025).

Holding throughout (assay): BLI
What all share (settings): both partners purified

Test [1] deals with T1, fHbp m001927 (Neisseria meningitidis; fHbp …, chimera).
T1 chain: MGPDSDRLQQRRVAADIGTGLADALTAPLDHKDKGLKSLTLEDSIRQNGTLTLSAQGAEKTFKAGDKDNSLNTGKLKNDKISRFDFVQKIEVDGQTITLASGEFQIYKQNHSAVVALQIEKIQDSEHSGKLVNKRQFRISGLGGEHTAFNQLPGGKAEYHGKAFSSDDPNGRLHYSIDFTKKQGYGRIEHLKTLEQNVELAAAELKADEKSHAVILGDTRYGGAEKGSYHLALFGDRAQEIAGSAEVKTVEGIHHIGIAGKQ

The target of test [2] is T2, fHbp m001928 (Neisseria meningitidis; fHbp …, chimera).
T2 chain: T1 chain with G252S

In test [3] the target is T3, fHbp m001929 (Neisseria meningitidis; fHbp …, chimera).
T3 chain: T1 chain with G252A

Test [4] addresses T4, fHbp m001932 (Neisseria meningitidis; fHbp …, chimera).
T4 chain: T1 chain with E251N, G252A

For test [5], the target named is T5, fHbp m001935 (Neisseria meningitidis; fHbp …, chimera).
T5 chain: T1 chain with E251V, G252A

The target of test [6] is T6, fHbp m002335 (Neisseria meningitidis; fHbp …, chimera).
T6 chain: T1 chain with G222N, G223S, E251N

In test [7] the target is T7, fHbp m002415 (Neisseria meningitidis, designed fHbp …, chimera).
T7 chain: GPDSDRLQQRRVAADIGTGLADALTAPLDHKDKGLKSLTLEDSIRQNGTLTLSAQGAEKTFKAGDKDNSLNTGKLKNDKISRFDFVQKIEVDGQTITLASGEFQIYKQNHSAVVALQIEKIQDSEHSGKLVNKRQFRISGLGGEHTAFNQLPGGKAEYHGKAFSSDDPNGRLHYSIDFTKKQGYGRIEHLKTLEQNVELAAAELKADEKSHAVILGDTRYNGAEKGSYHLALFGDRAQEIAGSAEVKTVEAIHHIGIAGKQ

In test [8] the target is T8, fHbp m002416 (Neisseria meningitidis, designed fHbp …, chimera).
T8 construct: also called fHbp 2,416; Round 2 best mutant
T8 chain: T7 chain with E250N, A251G

The target of test [9] is T9, fHbp m002421 (Neisseria meningitidis, designed fHbp …, point mutant).
T9 chain: T7 chain with E250V

Test [10] deals with T10, fHbp mutant 0014 (Neisseria meningitidis, fHbp v1.1 mutant, point mutant).
T10 chain: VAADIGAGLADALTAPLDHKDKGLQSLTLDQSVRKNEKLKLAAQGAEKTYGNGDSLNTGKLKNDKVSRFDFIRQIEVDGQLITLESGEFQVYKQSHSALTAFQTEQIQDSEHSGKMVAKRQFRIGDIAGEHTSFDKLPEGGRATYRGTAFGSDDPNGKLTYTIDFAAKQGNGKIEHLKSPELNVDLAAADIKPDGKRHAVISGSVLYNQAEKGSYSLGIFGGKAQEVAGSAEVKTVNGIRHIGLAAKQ

Test [11] has as its target T11, fHbp mutant 0017 (Neisseria meningitidis, fHbp v1.1 mutant, point mutant).
T11 chain: T10 chain with K38T, K40T, A42S, I72V, Q74K, M116L, A118N

Test [12] deals with T12, fHbp mutant 0018 (Neisseria meningitidis, fHbp v1.1 mutant, point mutant).
T12 chain: T10 chain with K38T, K40T, A42S, I72V, Q74K, Q106K

The target in test [13] is T13, fHbp m000019 (Neisseria meningitidis, fHbp v1.1 …, point mutant).
T13 chain: T10 chain with K38T, K40T, A42S, I72V, Q74K, Q106K, M116L, A118N, P155A, N156G

Test [14] deals with T14, fHbp mutant 0015 (Neisseria meningitidis, fHbp v1.1 mutant, point mutant).
T14 chain: T10 chain with I72V, Q74K, Q106K, M116L, A118N

Substitutions are numbered along the chain they refer to.

B1: chimeric antibody hJAR5 (antibody, V domains shown)
VH: QVQMQQPGAELVKPGASVKLSCKASGYTFISYWMHWVKQRPGRGLEWIGRIAPDTGIIYYNEKFKNKATLTVDTPSSTAYMQLNSLTSEDSAVYYCARYLKYDGSTYRFDYWGQGTTLTVSS
VL: DIVMTQAAPSVPVTPGESVSISCRSSKSLLHSNGNTYLFWFLQRPGQSPQLLIYRMSNLASGVPDRFSGSGSGTSFTLRISRVEAEDVGVYYCMQHLEYPYTFGGGTKLEIK
notes: also called hJAR5-2; humanized JAR5; source: Expi293, purified (MabSelect SuRe, SEC); copies: 2 + 2
The koff is the rate constant with which the complex falls apart. By kon is commonly meant the second-order rate constant of association. Higher therefore signals fast association. With B1, the koff in test [1] was found to be 0.000372 s⁻¹; in test [4], 0.000936 s⁻¹; in test [5], 0.000223 s⁻¹; in [7], 0.000261 s⁻¹; in test [8], 0.000278 s⁻¹. Also, the kon in test [2] stood at 402800 ± 1730 M⁻¹ s⁻¹; in [3], 301000 ± 5290 M⁻¹ s⁻¹; in test [6], 357500 ± 1540 M⁻¹ s⁻¹; in test [9], 1.246e+06 ± 5320 M⁻¹ s⁻¹.

B2: mAb JAR5 (mouse) (antibody, V domains shown)
VH: B1 VH
VL: B1 VL
notes: source: Expi293, purified (MabSelect SuRe, SEC); copies: 2 + 2
In the case of B2, the koff in [10] worked out at 0.000279 s⁻¹; in [14], 0.000161 s⁻¹. The kon in [11] was 674200 ± 6520 M⁻¹ s⁻¹; in test [12], 689400 ± 5340 M⁻¹ s⁻¹; in test [13], 937000 ± 4100 M⁻¹ s⁻¹; in test [14] it was 769000 ± 9300 M⁻¹ s⁻¹.
